This note sets out measurements from patent US6054279.

This data set deals with AvaI restriction endonuclease. The data set is described as follows: enzyme reaction in vitro. Conditions: 5'-FAM, ROX at T11; alpha-thio dCTP incorporated in the complementary strand; SDA with 100 and 1000 targets; 6 mM MgOAc, 40 mM K phosphate pH 7.5, 53-54 C, Bst polymerase present; purified native protein; protein details: New England BioLabs; label: FAM/ROX.

Construct, isoform or probe ends are uncertain for at least one entry.

For “TAGCCTCGAGTAGAGTCTTCAAATATCAGAGCTTTACCTAACAA (double strand)”, the “activity on this sequence” value is “active”.
